Results from patent US20260069689A1, “ANTI-SARS-COV-2-SPIKE GLYCOPROTEIN ANTIBODIES AND ANTIGEN-BINDING FRAGMENTS” (Regeneron, published 2026).

B1: mAb14315 (antibody, V domains shown)
VH: QVQLVQSGAEVKKPGSSVKVSCKASGDTFSTYAINWVRQAPGQGLEWMGRFIHIFGTANYAQKFQGRVTITADESTSTAYMELRSLRSEDTAVYYCARDGVDYGDYRPDYWGQGTLVTVSS
VL: EIVLTQSPGTLSLSPGERATLSCRASQSVSSNYLAWYQQKPGQAPRLLIYGASSRATGIPERFSGSGSGTDFTLTISRLEPEDFAVYYCQQYGSSLYTFGQGTKLEIKR
B2: mAb15150 (antibody, V domains shown)
VH: EVQLVETGGGLIQPGGSLRLSCAAPGFIVSSNYMSWVRQAPGKGLEWVSLLYPGGSTYYADSVKGRFTISRDNSKNTLYLQMNSLRADDTAVYYCARVLPIVEDHFDYWGQGTLVTVSS
VL: DIQLTQSPSFLSASVGDRVTITCRASQGMSSYLAWYQKKPGKAPKLLIYGATILQSGVPSRFSGSGSGTEFTLTISSLQPEDFATYYCQQLNSDPLYMYTFGQGTKLEIKR
B3: mAb15151 (antibody, V domains shown)
VH: QVQLVESGGGVVQPGRSLRLSCAASGFVFNSYGMHWVRQAPGKGLEWVAVLWYEGSKNYYADSVKGRFTISRDNSKNTLYLQMNSLRAEDTAVYYCARHGSGSFFGYYLDYWGQGTLVTVSS
VL: DIQMTQSPSSLSASVGDRVTITCRASHNINDFLNWYQQKPGKAPRLLIYAASSLQSGVPSRFSGSGSGTDFTLTISSLQPEDFATYYCQESYTTPPTFGQGTKLEIKR
B4: mAb14257 (antibody, V domains shown)
VH: EVQLVESGGGLVQPGGSLRLSCAASGFTVSRSYMNWVRQAPGKGLEWVSVVFTGGTTKHTDSVKGRFTISRDNSMNTLYLQMNSLRPEDTAVYYCARVAIVETTGAFDIWGQGTMVTVSS
VL: QSVLTQPPSVSGAPGQRVTISCTGTSSNIGADFDVHWYQQFPGTAPKLLIYGHTNRPSGIPDRFSGSKSGTSASLAITGLQAEDEADYYCQSYDSSLSGSVVFGGGTKLTVLG
B5: mAb14283 (antibody, V domains shown)
VH: QVQLQESGPGLVKPSGTLSLTCDVSGGSISSNNWWSWVRQRPGKGLQWIGEIYHNENTNYNPSLKSRVIMSIDKSKNQFSLKLTSVTAADTAVYYCARGDVLDWFDPWGQGTLVTVSS
VL: QSALTQPASVSGSPGQSTTISCTGTSSDVGGYNYVSWYQQYPGKAPKLMIYDVTNRPSGVSHRFSGSKSGNTASLTISGLQAEDEADYYCSSYTSSSTVIFGGGTKLTVLG
B6: mAb14286 (antibody, V domains shown)
VH: QVQLVQSGAEVKKPGASVKVSCKASGYTFTDYFIHWVRQAPGQGLEWMGWINPTSGGTNYAQKFRGRVTMTRDTSISTAYVELSRLRSDDTALYYCARDLPFYSDTKQFDYWGQGTLVTVSS
VL: B5 VL with S13Y, T18I, Y41H, Y51F, T54S, H62N, I77F, V99L, I100V
B7: mAb14313 (antibody, V domains shown)
VH: EVQLVESGGGLVQPGRSLRLSCVASGFTFDDSAMHWVRQPPGKGLEWVSGISWNSGIIGYAESVKGRFIISRDNAKNSLFLHMRGLRPEDTAVYYCARDRLELSYYYYGMDVWGQGTTVTVSS
VL: QSVLTQPPSASGTPGQRVTISCSGSSSNIGSNTVNWYQQFPGTAPRLLIYSNDQRPSGIPDRFSGSKSGTSASLAISGLQSEDEADYYCSTWDDSLNGAVFGGGTQLTVLG
B8: mAb14281 (antibody, V domains shown)
VH: QVQLVQSGADVKKPGASVKVSCKTSGYIFTGYYIHWVRQAPGQGLEWMGWINPNSGGTNSAQKFQGRVTMTRDTSISTVYMELSRLRSDDTAVYYCAKSNSFSVLDYNFDYWGQGTLVTVSS
VL: SSELTQDPAVSVALGQTVRITCQGDSLRSYYASWYQQKPGQAPVLVIYDKNNRPSGIPDRFSGSSSGNTASLTITGAQAEDEADYYCNSRDSSRNHLVVFGGGTKLTVLG
B9: mAb15170 (antibody, V domains shown)
VH: EVQLVESGGGLVQPGGSLRLSCAATGITVSSNYMSWVRQAPGKGLEWVSLIYSGGSTFYADSVKGRFTISRHNSKNTLYLQMSSLRAEDTAVYYCARDLVDFGMDVWGQGTTVTVSS
VL: DIQLTQSPSSLSASVGDRVTITCRASQGISNYLAWYQQKPGKAPKLLIYAASTLQSGVPSRFSGSGSGTDFTLTISSLQPEDFGTYYCQQLNSDSPTFGQGTKVEIKR
B10: mAb14230 (antibody, V domains shown)
VH: EVQLVESGGGLIQPGRSLRLSCAASGFTFDDYAMHWVRQAPGKGLEWVSGISWNSVSIDYADSVKGRFTISRDNAKNSLYLQMTSLTVEDTALYYCAKAFGYETLTGSDYFAYWGPGTLVTVSS
VL: EIVLTQSPGTLSLSPGERATLSCRASQTVISTYLAWYQQKPGQSPRLLIYGASSRATGIPDRFSGSGSGTDFTLTISRLEPEDFAVYYCQQYGSSPQLTFGGGTKVEIKR
B11: mAb14256 (antibody, V domains shown)
VH: QVQLQESGPGLVKPSETLSLTCTVSGGSISSHYWSWIRQPPGKGLEWIGYIYYSGSSNYNPSLKSRVTISVDTSKNQFSLKLNSVTAADTAVYYCARHYDILTGFDWFDPWGQGTLVTVSS
VL: QSVLTQPPSVSGAPGQRVTISCTGSSSNIGTHYDVHWYQQLPGTAPKLLIYGNSNRPSGVPDRFSGSKSGTSASLAITGLQAEDEADYYCQSFDNSLTAPYVFGTGTKVTVLG
B12: mAb14289 (antibody, V domains shown)
VH: QVQLVQSGPEVKKPGASVKVSCKASGYTFTSYAISWVRQAPGQGLEWMGWISAYNGNTNYAQKLQGRVTMTTDTFTSTAYMELRSLRSDDTAVYYCAVPADHITFDYWGQGTLVTVSS
VL: EIVLTQSPGTLSLSPGERATLSCRASQSVSSYLAWYQQKPGQAPRLLIHGASSRATGIPDRFSGSGSGTDFTLTISRLEPEDFAVYYCQQYGSSFLTFGGGTKVEIKR
B13: mAb14294 (antibody, V domains shown)
VH: EVQLVESGGGLVQPGGSLRLSCAASGFTFSNHWMDWVRQAPGKGLVWVSRINSDGSSTDYADSVRGRFTMSRDNAKNTLYLQMSSLRAEDTAVYYCAREGMIFGAVIIPGWYFDLWGRGALVTVSS
VL: EIVLTQSPGTLSLSPGERATLSCRASQSVSSSQLAWYQQKPGQAPRLLIYGASSRATGIPDRFSGSGSGTDFTLTISRLEPEDFAVYYCQQYDSFGQGTKLEIKR
B14: mAb14247 (antibody, V domains shown)
VH: QITLKESGPTLVKPTQTLTLTCTFSGFSLSTSAVGVGWIRQPPGKALEWLALIYWDDDKRYSPSLKSRLTITKDTSKNQLVLTMTNVDPVDTATYYCAHHTIQLIFDYWGQGTLVTVSS
VL: QSALTQPASVSGSPGQSITISCTATSSDVGNYNYVSWYQQHPGKAPKLMIYEVSNRPSGVSNRFSGSKSGNTASLTISGLQAEDEADYYCSSYTSSSTPLVFGGGTKLTVLG
B15: mAb14235 (antibody, V domains shown)
VH: QITLKESGPTLVKPTQTLTLTCTFSGFSLNTGGVGVGWIRQPPGNALEWLALIYWDDDKRYNPSLKTRLTISKDTSKNQVVLTMTNMDPVDTATYFCAHLTIAVIVDFWGQGTLVTVSS
VL: QSALTQPASVSGSPGQSITISCTATSSDVGTYNYVSWFQHHPGKAPKLMIYEVTNRPSGVSNRFSGSKSGNTASLTISGLQAEDEADYYCSSYTTTSIVFGGGTKLTVLG
B16: mAb14255 (antibody, V domains shown)
VH: QVQLQESGPGLVKPSETLSLTCTVSGGSISGYYWSWIRQPPGKGLDWIGYIYYRGNTNYNPSLKSRVTISVDTSNNQFSLKLSSVTAADTAVYYCARYGEGYGDASGYHFDYWGQGTLVTVSS
VL: QSALTQPASVSGSPGQSITISCTGTSSDVGSYNLVSWYQQHPGKAPKLMIYEDSKRPSGVANPFSGSKSGNTASLTISGLQAEDEADYYCSSYAGSSTWVFGGGTKLTVLG
B17: mAb15164 (antibody, V domains shown)
VH: EVQLVESGGGLVQPGGSLRLSCAASGFAVSSNYMTWVRQAPGKGLEWVATIYSGDSTYYADSVKGRFTISRHNSKNTLSLQMNSLRADDTAIYYCARLSGVLSGTYNGAFDIWGQGTMVTVSS
VL: B16 VL with V29F, S31N, L34I, K44Q, L48V, D53G, S54N, A61S, P63R, N71H
B18: mAb15165 (antibody, V domains shown)
VH: EVQLVESGGGLVQPGGSLRLSCAASGFTVSSNYMSWVRQAPGKGLEWVSAIYSGDSTYYADSVKGRFTISKDNSKNTLYLQMNSLRGEDTAVYYCARLGGALQAYDGAFDYWGQGTLATVSS
VL: B16 VL with V29F, D53G, S54N, A61S, N62I, P63R
B19: mAb15166 (antibody, V domains shown)
VH: EVQLVESGGGLVQPGGSLRLSCAASGFTVTSNYMSWVRQAPGKGLEWVSAIYSGESTYYADSVKGRFTISRDSSKNTLYLQMNSLRVEDTAVYYCASIHDYSNYVGGFDPWGQGTLVTVSS
VL: B16 VL with T25P, V29F, D53G, S54T, A61S, P63R
B20: mAb14282 (antibody, V domains shown)
VH: QVQLVQSGAEVKKPGASVKVSCKASGYIFTDHYMHWVRQAPGQGLEWMGWINPNSGATNYAQNFQGRVTMTRDTSIITVYMELSRLRSDDTAVYYCARDSSPYMIRYTMDVWGQGTTITVSS
VL: QSALTQPASVSGSPGQSITISCTGTSSDVGSYNLVSWYQQHPGKAPKLMIYELTKRPSGVSNRFSGSKSGNTASLTISGLQAEDEADYYCSSYRGSVTDVVFGGGTKLTVLG

Columns and labels:
[1] = target: T1, SARS-CoV2 Spike ecto foldon Trimer expressed with a C-terminal myc-myc-hexahistidine (SARS-CoV-2, UniProt P0DTC2 14-1213); assay: SPR Biacore, mAb captured by anti-hFc, 37C
T1 construct: extracellular domain

[2] = target: T1, SARS-CoV2 Spike ecto foldon Trimer …; assay: SPR Biacore, mAb captured by anti-hFc, 25C
[3] = target: SARS-COV-2 RBD extracellular domain expressed with a C-terminal myc-myc-hexahistidine tag (SARS-COV-2 RBD-mmH) (SARS-CoV-2); assay: SPR Biacore, mAb captured on anti-hFc, RBD-mmH analyte, 37 C

Row | Binder | Spike trimer.their bound at 50 nM [1] [RU] | Spike trimer.their bound at 50 nM [2] [RU] | RBD monomer bound at 50 nM (RU) [3] [RU]
1 | B1 | 457 | 335 | 
2 | B2 |  |  | 64.9
3 | B3 |  |  | 141
4 | B4 | 685 | 535 | 
5 | B5 | 470 | 352 | 
6 | B6 | 539 | 425 | 
7 | B7 | 611 | 462 | 
8 | B8 | 430 | 311 | 
9 | B9 |  |  | 56.3
10 | B10 | 436 | 340 | 
11 | B11 | 509 | 357 | 
12 | B12 | 456 | 345 | 
13 | B13 | 441 | 342 | 
14 | B14 | 247 | 143 | 
15 | B15 | 397 | 298 | 
16 | B16 | 575 | 454 | 
17 | B17 |  |  | 93.4
18 | B18 |  |  | 82.5
19 | B19 |  |  | 19.7
20 | B20 | 566 | 422 | 

Positions count from the first letter of the chain named.
